Activity calls are given as the source filed them.
Legend:
[1] = Antifungal activity against Exophiala xenobiotica by microdilution test; assay type: functional
[2] = test system: Candida albicans; experiment: Antifungal activity against Candida albicans by microdilution test; assay type: functional
[3] = test system: Cryptococcus neoformans; experiment: Antifungal activity against Cryptococcus neoformans by microdilution test; assay type: functional
[4] = test system: Aspergillus niger; experiment: Antifungal activity against Aspergillus niger by microdilution test; assay type: functional
[5] = test system: Exophiala spinifera; experiment: Antifungal activity against Exophiala spinifera by microdilution test; assay type: functional
[6] = test system: Aspergillus flavus; experiment: Antifungal activity against Aspergillus flavus by microdilution test; assay type: functional
[7] = test system: Aspergillus terreus; experiment: Antifungal activity against Aspergillus terreus by microdilution test; assay type: functional
[8] = Antifungal activity against Cladophialophora carrionii by microdilution test; assay type: functional
[9] = test system: Nakaseomyces glabratus; experiment: Antifungal activity against Candida glabrata by microdilution test; assay type: functional
[10] = test system: Pichia kudriavzevii; experiment: Antifungal activity against Candida krusei by microdilution test; assay type: functional
[11] = test system: Meyerozyma guilliermondii; experiment: Antifungal activity against Candida guilliermondii by microdilution test; assay type: functional
[12] = test system: Aspergillus nidulans; experiment: Antifungal activity against Aspergillus nidulans by microdilution test; assay type: functional, organism-based
[13] = Antifungal activity against Exophiala oligosperma by microdilution test; assay type: functional
[14] = test system: Candida parapsilosis; experiment: Antifungal activity against Candida parapsilosis by microdilution test; assay type: functional
[15] = Antifungal activity against Aspergillus fumigates by microdilution test; assay type: functional

Measured: Activity

ClCCN1c2ccccc2Sc2ccccc21
inactive: all assays above
